Measurements reported in PubChem BioAssay AID1224833 (University of Georgia, 2016).

Screen: 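Human genes whose knock-down alters rotavirus replication in monkey cells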 (primary screen)
Cell system: monkey MA104 kidney cells
Reagents: siRNA pool against human genes, 50 nM
Timing: 48 h knock-down before infection; read 24 h after infection
Treatment: infection with rotavirus strain RV3 two days after transfection; infectious dose for this stage not given
Measurement: 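Rotavirus antigen per well by fluorescent immunoassay, normalised to non-targeting control wells on each plate and given as a standard z-score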
Direction: z-score vs non-targeting control: higher = more rotavirus replication than with non-targeting control
Rule for the call: In these data the active calls have z-score vs non-targeting control at about -1 or lower, or at about 1 or higher
Meaning of the calls: active = z-score beyond 1 either way; inactive = z-score within 1 of zero
Here is a random part of about 12,000 deposited reagents. Of all reagents, about 5,600 (46%) are marked active. 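Active calls cover z-scores past 1 in both directions, so they include lowered as well as raised rotavirus replication.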 Entries without a mark were called inactive.

{"gene":"CDYL (chromodomain Y like)","z-score vs non-targeting control":"1.83 (active)"}
{"gene":"ABCD2 (ATP binding cassette subfamily D member 2)","z-score vs non-targeting control":-0.853}
{"gene":"ZNRF4 (zinc and ring finger 4)","z-score vs non-targeting control":"-2.91 (active)"}
{"gene":"TAT (tyrosine aminotransferase)","z-score vs non-targeting control":-0.949}
{"gene":"NDUFAB1 (NADH:ubiquinone oxidoreductase subunit AB1)","z-score vs non-targeting control":-0.788}
{"gene":"DISP2 (dispatched RND transporter family member 2)","z-score vs non-targeting control":"1.54 (active)"}
{"gene":"CCDC191 (coiled-coil domain containing 191)","z-score vs non-targeting control":"3.74 (active)"}
{"gene":"TMEM132D (transmembrane protein 132D)","z-score vs non-targeting control":"1.2 (active)"}
{"gene":"TIMP3 (TIMP metallopeptidase inhibitor 3)","z-score vs non-targeting control":"-1.55 (active)"}
{"gene":"SLC39A7","z-score vs non-targeting control":-0.603}
{"gene":"JAM2 (junctional adhesion molecule 2)","z-score vs non-targeting control":"-3.03 (active)"}
{"gene":"ARHGEF25 (Rho guanine nucleotide exchange factor 25)","z-score vs non-targeting control":0.117}
{"gene":"G0S2 (G0/G1 switch 2)","z-score vs non-targeting control":"-2.63 (active)"}
{"gene":"ISCA2 (iron-sulfur cluster assembly 2)","z-score vs non-targeting control":-0.353}
{"gene":"ZNF429 (zinc finger protein 429)","z-score vs non-targeting control":"-2.33 (active)"}
{"gene":"ZFP37 (ZFP37 zinc finger protein)","z-score vs non-targeting control":-0.571}
{"gene":"GPN2 (GPN-loop GTPase 2)","z-score vs non-targeting control":-0.757}
{"gene":"OCLN (occludin)","z-score vs non-targeting control":-0.574}
{"gene":"TAS2R20 (taste 2 receptor member 20)","z-score vs non-targeting control":-0.52}

Not a retest: 2 of the entries above.
{"gene":"NDUFAB1 (NADH:ubiquinone oxidoreductase subunit AB1)","z-score vs non-targeting control":-0.788}
{"gene":"DISP2 (dispatched RND transporter family member 2)","z-score vs non-targeting control":"1.54 (active)"}
